Laboratory results published in PubChem BioAssay AID651644 (National Center for Advancing Translational Sciences (NCATS), 2012).
This is a selection; strong and weak results do not stand in their true shares. Activity calls are given as the source filed them. Calls come from the whole dose curve; as a rule, active = well fitted falling curve with a large enough effect; inconclusive = small, poorly fitted or top-dose-only effect; inactive = no such curve, though single readings can be large or run the other way.

assay: qHTS Assay for Inhibitors of the HIV-1 protein Vpr; note: nearly all actives have a fitted effect of over 50% in size; settings: S. pombe RE007 Vpr strain, BacTiter-Glo ATP luminescence, 24 h; at 92.2 µM (top of the series) unless noted
% is set by controls: 0 for no effect and ±100 for the full control effect.

| SMILES | activity change, negative = less growth |
| --- | --- |
| O=[N+]([O-])c1ccc2c(c1)C=Nc1ccccc1O2 | inactive: -7.31% |
| Cc1ccc2nc3c(c(C)c2c1)CC(C(Cl)Cl)S3 (stereo unspecified) | inactive: -1% |
| Cc1cccc(C)c1OP(C)(N)=O (stereo unspecified) | inactive: 13.3% |
| Cc1ccc(OP(=O)(Nc2ccc([N+](=O)[O-])cn2)Oc2ccc(C)cc2)cc1 | inactive: -8.53% |
| [N-]=[N+]=NC1CCCCC1NC(=O)c1cc([N+](=O)[O-])cc([N+](=O)[O-])c1 (stereo unspecified) | inactive: -14.2% |
| CC(C)(C)c1ccc(OP(C)(=O)Nc2ccc(SC(F)(F)F)cc2)cc1 (stereo unspecified) | inactive: 0.523% |
| O=[N+]([O-])c1ccc(-c2cc([N+](=O)[O-])c(O)c([N+](=O)[O-])c2)cc1 | inactive: 1.6% |
| COc1cc(C(=O)NCC2(N3CCOCC3)CCCCC2)ccc1OCC(C)C | inactive: -1.66% |
| C[As](=O)(O)c1cccc(C(=O)O)c1 | inactive: -2.25% |
| O=[As](O)(c1ccc(O)cc1)c1ccccc1O | inactive: -7.42% |
| O=[N+]([O-])c1cc([N+](=O)[O-])c(Nc2cccnc2)c([N+](=O)[O-])c1 | inactive: -24.2% |
| COc1ccccc1-c1ccccn1.O=[N+]([O-])c1cc([N+](=O)[O-])c(O)c([N+](=O)[O-])c1 | inactive: -4.62% |
| COc1ccc(N/C(=N/P(=O)(N2CCOCC2)N2CCOCC2)N2CCOCC2)cc1 | inactive: -20.7% |
| O=[N+]([O-])c1cc(Oc2ccc([N+](=O)[O-])cc2C(F)(F)F)cc([N+](=O)[O-])c1 | inactive: 2.81% |
| COc1cc(I)ccc1[As](=O)(O)O | inactive: -6.35% |
| COc1ccc2nc(NP(=O)(c3ccccc3)c3ccccc3)sc2c1 | inactive: 55.8% |
| O=P1(N(CCCl)CCCl)OCCCN1CCCl (stereo unspecified) | inactive: 4.03% |
| O=P1(N(CCCl)CCCl)Nc2ccccc2N1 | inactive: 14.9% |
| Cc1cc(=O)[nH]c(N[N+](=O)[O-])n1 | inactive: 6.3% |
| CCN(CC)CCCOC(=O)C(O)(c1ccccc1)c1ccccc1 | inactive: 15.3% |
| O=C(OC1CN2CCC1CC2)C12CC3CC(CC(C3)C1)C2 (stereo unspecified) | inactive: 1.29% |
| Cc1c2c(nc3ccccc13)SC(C(Cl)Cl)C2 (stereo unspecified) | inactive: -21.8% |
| CP(=O)(Nc1ccccn1)Oc1ccc(Cl)cc1 (stereo unspecified) | inactive: -0.589% |
| CCC(C)N(CC(C)C)C(=S)SC(NC(C)=O)C(Cl)(Cl)Cl (stereo unspecified) | inactive: -8.42% |
| O=[N+]([O-])c1cc([N+](=O)[O-])c(O)c([N+](=O)[O-])c1.c1ccc(Oc2ccncc2)cc1 | inactive: -19.1% |
| CCOC(=O)c1ccc(NC(=O)C(C)(CCl)SC)cc1 (stereo unspecified) | inactive: 10.5% |

| SMILES | activity change, negative = less growth |
| --- | --- |
| CCOC(=O)c1ccc(NP(C)(=O)Oc2ccc(OC)cc2)cc1 (stereo unspecified) | inactive: 14.3% |
| CSc1ccc(Nc2c([N+](=O)[O-])cc([N+](=O)[O-])cc2[N+](=O)[O-])cc1 | inactive: -27.4% |
| CCOP(C)(=S)SCC(=O)NC(C)C(=O)O (stereo unspecified) | inactive: -12.8% |
| O=C(OC1CN2CCC1CC2)c1cccc([N+](=O)[O-])c1 (stereo unspecified) | inactive: -1.96% |
| O=C(Nc1ccncc1[N+](=O)[O-])c1ccc([N+](=O)[O-])cc1[N+](=O)[O-] | inactive: -8.4% |
| Cc1cc(C)cc(OP(C)(=O)Nc2ccc(SC(F)(F)F)cc2)c1 (stereo unspecified) | inactive: -7.48% |
| CP(=O)(NC(=O)Nc1ccccc1)Oc1ccccc1 (stereo unspecified) | inactive: 8.52% |
| O=C(COc1ccccc1)OC1CN2CCC1CC2 (stereo unspecified) | inactive: -0.331% |
| CCc1ccc(OP(C)(=O)N2CCN(c3ccc([N+](=O)[O-])cc3)CC2)cc1 (stereo unspecified) | inactive: -6.53% |
| COC(=O)C1(C)COP(=O)(N2CCCC2)OC1 (stereo unspecified) | inactive: 7.35% [at 18.4 µM] |
| CP(=O)(Oc1ccccc1)OC(c1ccccc1)C(F)(F)F (stereo unspecified) | inactive: 20.5% |
| COP1(=S)c2c(C)nn(CCC#N)c2N=C(c2ccc(F)cc2)N1C (stereo unspecified) | inactive: 6.02% |
| Cc1cccc(C)c1OP(C)(=O)Nc1ccc(SC(F)(F)F)cc1 (stereo unspecified) | inactive: -2.17% |
| CP(=O)(Nc1ccccc1Br)Oc1ccccc1 (stereo unspecified) | inactive: 3.52% |
| COc1ccccc1OP(C)(=O)Nc1ccccc1 (stereo unspecified) | inactive: 1.55% |
| Cc1cc(SC(NC=O)C(Cl)(Cl)Cl)ncn1 (stereo unspecified) | inactive: 7.29% |
| O=P(Nc1ccccn1)(c1cccc2ccccc12)c1cccc2ccccc12 | inactive: 2.44% |
| CCOC(=O)Nc1cccc([As](=O)(O)O)c1 | inactive: -9.95% |
| CP(=S)(Nn1cnnc1)Oc1ccccc1 (stereo unspecified) | inactive: 12.6% |
| Cc1cc(SC(NC(=O)c2ccccc2)C(Cl)(Cl)Cl)nc(C(C)C)n1 (stereo unspecified) | inactive: 17.7% |
| CCCCOc1ccc(C(=O)NCC2(N3CCCCC3)CCCCC2)cc1OC | inactive: -18.7% |
| COP(=O)(OC)N1CC1c1ccccc1 (stereo unspecified) | inactive: -20% |
| CC1CCNP(=O)(N(CCCl)CCCl)O1 (stereo unspecified) | inactive: 0.128% |
| O=C(O)C(=O)c1ccc(N(CCCl)CCCl)cc1.c1ccc(Nc2ccccc2)cc1 | inactive: -27.4% |
| CCOC(=O)Nc1ccc([As](=O)(O)O)c(O)c1 | inactive: 6.28% |
